What was measured:
Format in all cases: functional
[1] = tested on: Burkholderia pseudomallei; assay: Antimicrobial activity against Burkholderia pseudomallei KHW in presence of 500 uM promazine
[2] = tested on: Burkholderia pseudomallei; assay: Antimicrobial activity against Burkholderia pseudomallei KHW in presence of 250 uM promazine
[3] = tested on: Burkholderia pseudomallei; assay: Antimicrobial activity against Burkholderia pseudomallei KHW in presence of 250 uM omeprazole
[4] = tested on: Burkholderia pseudomallei; assay: Antimicrobial activity against Burkholderia pseudomallei KHW in presence of 500 uM omeprazole

Measured: MIC

CN[C@@H]1[C@H](O)[C@H](NC)[C@H]2O[C@@]3(O)C(=O)C[C@@H](C)O[C@H]3O[C@@H]2[C@H]1O [SPECTINOMYCIN]
64 µg/mL: all assays above
